Results of unrelated studies side by side (data: NIAID ChemDB).

Shared fields: growth or infection tests; agent: Hepatitis C virus; cell line: Huh7; read-out: EC50

Blank or dashed fields: not listed here.

structure,strain or isolate,method,conditions,result
Nc1ccn([C@@H]2C[C@H](CO)[C@@H](O)[C@]2(O)CO)c(=O)n1,-,-,-,11.7 µg/mL
COc1cc(Cc2cnc(/N=C3\C(=O)N(CN4CCN(c5c(OC)cc6c(c5F)c(=O)c(C(=O)O)cn6C5CC5)CC4C)c4ccc(C)cc43)nc2N)cc(OC)c1OC,-,-,-,<50 µg/mL
O=C(O)c1ccc2c(C3CCCCC3)c3n(c2c1)CCCc1[nH]cnc1-3,-,replicon,-,>10 µM
C=C[C@H]1C[C@@]1(NC(=O)[C@@H]1C[C@@H](Oc2cc(-c3ccccc3)nc3cc(OC)ccc23)CN1C(=O)[C@@H](NC(=O)OC(C)(C)C)C(C)(C)C)C(=O)NS(=O)(=O)C1(Cc2ccccn2)CC1,1b,replicon,-,<0.05 µM
COc1cc(Cc2cnc(/N=C3\C(=O)N(CN4CCN(c5ccc6c(c5F)c(=O)c(C(=O)O)cn6C5CC5)CC4)c4ccc(C)cc43)nc2N)cc(OC)c1OC,-,-,-,<50 µg/mL
COc1ccc(Cn2c(Br)nc3c(=O)nc(N)[nH]c(=O)c32)cc1,-,replicon,-,<10 µM
C=C1C(=O)O[C@@H]2[C@H]1CC[C@H](COC(=O)C(C)CC)[C@]1(O)CCC(=O)[C@@]21C,-,replicon,-,>2 µM
COc1ccc2c(O[C@@H]3C[C@@H](C(=O)NC4(C(=O)NS(=O)(=O)C5(C6=CCCCC6)CC5)CC4)N(C(=O)[C@@H](NC(=O)OC(C)(C)C)C(C)(C)C)C3)cc(-c3ccccc3)nc2c1,1b,replicon,-,0.5–5 µM
O=C(Cc1cncc(Br)c1)N/N=C/c1ccccc1OS(=O)(=O)c1ccc(C(F)(F)F)cc1,-,replicon,-,<5 µM
C=CCCCCCCCCC1(S(=O)(=O)NC(=O)[C@]2(NC(=O)[C@@H]3C[C@@H](Oc4cc(-c5ccccc5)nc5cc(OC)ccc45)CN3C(=O)[C@@H](NC(=O)OC(C)(C)C)C(C)(C)C)C[C@@H]2C=C)CC1,1b,replicon,-,0.05–0.5 µM
C=CC1C[C@]1(NC(=O)[C@@H]1C[C@@H](Oc2cc(-c3ccccc3)nc3cc(OC)ccc23)CN1C(=O)[C@@H](NC(=O)OC(C)(C)C)C(C)(C)C)C(=O)NS(=O)(=O)c1nc(NC(C)=O)sc1C,BMS,-,-,1–10 µM
C[C@]1(O)[C@H](n2cnc3c(N)ncnc32)C[C@@](O)(C(F)(F)F)[C@H]1O,-,replicon,-,>50 µM
C=C1C(=O)O[C@@H]2[C@H]1CC[C@H](COC(=O)CCC)[C@]1(O)CCC(=O)[C@@]21C,-,replicon,-,<2 µM
CCC[C@H](NC(=O)[C@@H]1[C@H]2CCC[C@H]2CN1C(=O)[C@@H](NC(=O)[C@@H](NC(=O)c1cnccn1)C1CCCCC1)C(C)(C)C)C(=O)C(=O)NC1CC1,-,replicon,40% human serum,3.45 µM
CCC[C@H](NC(=O)[C@@H]1[C@H]2CCC[C@H]2CN1C(=O)[C@@H](NC(=O)[C@@H](NC(=O)c1cnccn1)C1CCCCC1)C(C)(C)C)C(=O)C(=O)NC1CC1,1b,-,-,0.8 µM
C=C1C(=O)O[C@@H]2[C@H]1CC[C@H](COC(=O)/C(C)=C\C)[C@]1(O)CCC(=O)[C@@]21C,-,replicon,-,<2 µM
CCCCCCCCCCCCNc1nc(=O)c2nc(Br)n(Cc3ccc(OC)cc3)c2c(=O)[nH]1,-,replicon,-,>10 µM
O=C(O)c1ccc2c(C3CCCCC3)c3n(c2c1)CCCc1cc(O)ccc1-3,-,replicon,-,0.01–1 µM
C=CC1C[C@]1(NC(=O)[C@@H]1C[C@@H](Oc2cc(-c3ccccc3)nc3cc(OC)ccc23)CN1C(=O)[C@@H](NC(=O)OC(C)(C)C)C(C)(C)C)C(=O)NS(=O)(=O)c1cc(Br)c(Cl)s1,BMS,-,-,1–10 µM
CC(=O)Oc1c(C(=O)OCc2ccccc2)c2c(c3ccccc13)OC(C)(C)CC2,GT1b,PCR,-,0.5–1 µg/mL
O=C(Cc1c(F)cccc1F)N/N=C/c1ccccc1OS(=O)(=O)c1ccc(C(F)(F)F)cc1,-,replicon,-,<5 µM
COC(=O)c1ccc2c(C3CCCCC3)c3n(c2c1)CCOc1cc(OCc2cc(C(=O)OC(C)(C)C)ccc2Br)ccc1-3,-,replicon,-,0.01–1 µM
C=CC1C[C@@]1(NC(=O)[C@@H]1C[C@@H](Oc2cc(-c3ccccc3)nc3cc(OC)ccc23)CN1C(=O)[C@@H](NC(=O)Oc1ccc(F)cc1)C(C)(C)C)C(=O)NS(=O)(=O)C1(Cc2ccccc2)CC1,1b,replicon,-,0.5–5 µM
C=CC1C[C@]1(NC(=O)[C@@H]1C[C@@H](Oc2cc(-c3ccccc3)nc3cc(OC)ccc23)CN1C(=O)[C@@H](NC(=O)OC(C)(C)C)C(C)(C)C)C(=O)NS(=O)(=O)c1ccc(Cl)s1,BMS,-,-,0.1–1 µM
C=CC1C[C@@]1(NC(=O)[C@@H]1C[C@@H](Oc2cc(-c3csc(NC(C)C)n3)nc3cc(OC)ccc23)CN1C(=O)[C@@H](NC(=O)OC(C)(C)C)C(C)(C)C)C(=O)NS(=O)(=O)C1(CC2CC2)CC1,1b,replicon,-,0.05–0.5 µM
O=C(O)c1ccc2c(C3CCCCC3)c3n(c2c1)C(O)c1ccccc1-3,-,replicon,-,>10 µM
C=CC1CC1(NC(=O)[C@@H]1C[C@@H](Oc2cc(-c3ccccc3)nc3cc(OC)ccc23)CN1C(=O)[C@@H](NC(=O)OC(C)(C)C)C(C)(C)C)C(=O)NS(=O)(=O)C1(C(=O)Cc2ccccc2)CC1,1b,replicon,-,<0.05 µM
COc1nc(N)nc2c1ncn2[C@@H]1O[C@H](COP(=O)(N[C@@H](C)C(=O)OCC(C)(C)C)Oc2cccc3ccccc23)[C@@H](O)[C@@]1(C)O,1b,luciferase,24 h,0.011 µM
COc1cc(Cc2cnc(/N=C3\C(=O)N(CN4CCN(c5cccc(C(F)(F)F)c5)CC4)c4ccc(C)cc43)nc2N)cc(OC)c1OC,-,-,-,<50 µg/mL
CNc1nc(=O)c2nc(Br)n(Cc3ccc(OC)cc3)c2c(=O)[nH]1,-,replicon,-,>10 µM
C=CC1C[C@]1(NC(=O)[C@@H]1C[C@@H](Oc2cc(-c3ccccc3)nc3cc(OC)ccc23)CN1C(=O)[C@@H](NC(=O)OC(C)(C)C)C(C)(C)C)C(=O)NS(=O)(=O)c1cc(Cl)c(Cl)s1,BMS,-,-,0.1–1 µM
CNC(=O)c1c(-c2ccc(F)cc2)oc2cc(N(CCO)S(C)(=O)=O)c(C3CC3)cc12,1b,-,-,0.009 µM
Nc1nc2c(s1)CCCn1c-2c(C2CCCCC2)c2ccc(C(=O)O)cc21,-,replicon,-,>10 µM
CCCCCCCCCCCCCCCCNc1nc(=O)c2nc(Br)n(Cc3ccc(OC)cc3)c2c(=O)[nH]1,-,replicon,-,<10 µM
O=C(Cc1c(F)c(F)c(F)c(F)c1F)N/N=C/c1ccccc1OS(=O)(=O)c1ccc(C(F)(F)F)cc1,-,replicon,-,>50 µM
C=C[C@H]1C[C@@]1(NC(=O)[C@@H]1C[C@@H](Oc2cc(-c3ccccc3)nc3cc(OC)ccc23)CN1C(=O)[C@@H](NC(=O)OC(C)(C)C)C(C)(C)C)C(=O)NS(=O)(=O)C1(CCC)CC1,1b,replicon,-,<0.05 µM
COc1cccc(CC(=O)N/N=C/c2c(OC)cccc2OS(=O)(=O)c2ccc(C(F)(F)F)cc2)c1,-,replicon,-,<5 µM
COC(=O)/C=C/c1ccc(NC(=O)C2(NC(=O)c3ccc4c(C5CCCCC5)c5n(c4c3)CCCc3[nH]cnc3-5)CCCC2)cc1,-,replicon,-,1–10 µM
C=C[C@H]1C[C@@]1(NC(=O)[C@@H]1C[C@@H](Oc2ccnc3cc(Cl)ccc23)CN1C(=O)[C@@H](NC(=O)OC1CCCC1)C(C)(C)C)C(=O)NS(=O)(=O)C1(CCC)CC1,1b,replicon,-,0.05–0.5 µM
COC(=O)c1c2c(c3ccccc3c1O)OC(C)(C)CC2,GT1b,PCR,-,1–2 µg/mL
COc1cc(Cc2cnc(/N=C3\C(=O)N(CN4CCNCC4)c4ccc(C)cc43)nc2N)cc(OC)c1OC,-,-,-,<50 µg/mL
Fc1ccccc1-c1nc2ccn(Cc3ccc(-c4ccc(C(F)(F)F)cc4C(F)(F)F)nn3)cc-2n1,GT1b,PCR,-,0.02–0.03 µg/mL
CN(C)CCNC(=O)C1=Cc2ccccc2-c2c(C3CCCCC3)c3ccc(C(=O)NC4(C(=O)Nc5ccc6c(c5)cc(C(=O)O)n6C)CCCC4)cc3n2C1,-,replicon,-,0.01–1 µM
C=CC1C[C@]1(NC(=O)[C@@H]1C[C@@H](Oc2cc(-c3ccccc3)nc3cc(OC)ccc23)CN1C(=O)[C@@H](NC(=O)OC(C)(C)C)C(C)(C)C)C(=O)NS(=O)(=O)c1cc([N+](=O)[O-])c(Cl)s1,BMS,-,-,0.1–1 µM
Cc1ccc(S(=O)(=O)Oc2ccc(F)cc2/C=N/NC(=O)Cc2cccc(Cl)c2)cc1,-,replicon,-,<5 µM
COc1nc(N)nc2c1ncn2[C@@H]1O[C@H](COP(=O)(N[C@H](C)C(=O)OCC(C)(C)C)Oc2cccc3ccccc23)[C@@H](O)[C@@]1(C)O,1b replicon,luciferase / replicon,-,0.01 µM
COc1cc(Cc2cnc(/N=C3\C(=O)N(CN4CCN(c5ccccn5)CC4)c4ccc(C)cc43)nc2N)cc(OC)c1OC,-,-,-,<50 µg/mL
Nc1ncnc2c1ncn2[C@H]1O[C@H](CO)[C@@H](F)[C@@H]1F,-,replicon,-,>10 µM
CC1(C)CCc2c(C(=O)Oc3ccc([N+](=O)[O-])cc3)c(O)c3ccccc3c2O1,GT1b,PCR,-,7 µg/mL
C=CC1C[C@]1(NC(=O)[C@@H]1C[C@@H](Oc2cc(-c3ccccc3)nc3cc(OC)ccc23)CN1C(=O)[C@@H](NC(=O)OC(C)(C)C)C(C)(C)C)C(=O)NS(=O)(=O)c1nnc(NC(C)=O)s1,BMS,-,-,1–10 µM
COc1cc(Cc2cnc(/N=C3\C(=O)N(CN4CCN(c5ccccc5)CC4)c4ccc(C)cc43)nc2N)cc(OC)c1OC,-,-,-,<50 µg/mL

Repeating the first 3 entries:

structure,strain or isolate,method,conditions,result
Nc1ccn([C@@H]2C[C@H](CO)[C@@H](O)[C@]2(O)CO)c(=O)n1,-,-,-,11.7 µg/mL
COc1cc(Cc2cnc(/N=C3\C(=O)N(CN4CCN(c5c(OC)cc6c(c5F)c(=O)c(C(=O)O)cn6C5CC5)CC4C)c4ccc(C)cc43)nc2N)cc(OC)c1OC,-,-,-,<50 µg/mL
O=C(O)c1ccc2c(C3CCCCC3)c3n(c2c1)CCCc1[nH]cnc1-3,-,replicon,-,>10 µM

a–b is a range or a potency band. ECn is the concentration giving n% inhibition of infection, replication or growth. Rows are shuffled and stem from different studies.